Assay results as given in ChEMBL document CHEMBL4303122, “Identification of potential treatments for COVID-19 through artificial intelligence-enabled phenomic analysis of human cells infected with SARS-CoV-2” (2020).

Test system: SARS-CoV-2
Experiment: Antiviral activity against SARS-CoV-2 (USA-WA1/2020 strain) measured by imaging in HRCE cells at MOI 0.4 after 96 hrs (reported as hit score from 0-1 for on-disease vs off-disease activity: scores >0.6 considered hits)
Assay type: functional
Settings: Homo sapiens

For `CC1(C)C2CCC1(CS(=O)(=O)O)C(=O)C2=Cc1ccc(C=C2C(=O)C3(CS(=O)(=O)O)CCC2C3(C)C)cc1.OCCN(CCO)CCO.OCCN(CCO)CCO`, the Hit score was 0.179.
